## PSTVd loop 6 mutant pool in Nicotiana benthamiana

The pool varies loop 6 of the PSTVd intermediate strain in the pattern UNNNCGNNNG; wild type is UGACCGCGAG (upper and lower strand joined, each 5' to 3', the first 5 letters being the upper strand, closing pairs included).

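A pool of all variants was put on leaves of three Nicotiana benthamiana plants. Samples came from the inoculated region at 5 days, the leaf margin at 10 and upper systemic leaves at 12.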

Numbers give reads per thousand; 0 = not seen among the reads, higher = more abundant. Each value is the mean of three plants. "Pool" is the share in the plasmid pool used as inoculum, on the same scale. The inoculated region was read from the minus strand, the other sites from the plus strand. IR is the inoculated region, LM the leaf margin, Sys the systemic leaves.

| sequence | pool | IR | LM | Sys |
|---|---|---|---|---|
| GGACCGCGGG | 0.0131 | 0.00579 | 0 | 0 |
| UAACCGCGAG | 0.0915 | 17.5 | 14.3 | 11.3 |
| UAAGCGAGUG | 0.196 | 0.0835 | 0.00920 | 0 |
| UAAGCGGAUG | 0.275 | 0.0997 | 0.00920 | 0 |
| UAAGCGGGAG | 0.301 | 0.683 | 0.100 | 0.0265 |
| UACUCGACUG | 0.288 | 0.0770 | 0.00920 | 0 |
| UACUCGCGUG | 0.314 | 0.0891 | 0.0323 | 0.00599 |
| UAGACGAGCG | 0.157 | 0.632 | 0.0452 | 0 |
| UAGCCGGAGG | 0.222 | 0.0658 | 0.0261 | 0 |
| UAGGCGGGCG | 0.235 | 0.0480 | 0.0155 | 0 |
| UAGUCGAGAG | 0.261 | 0.0952 | 0 | 0 |
| UAUUCGGGUG | 0.458 | 0.608 | 0.0860 | 0.00684 |
| UCACCGCCCG | 0.261 | 0.0597 | 0.00773 | 0.0269 |
| UCACCGUCAG | 0.248 | 0.578 | 0.120 | 0 |
| UCCACGGCCG | 0.222 | 0.0536 | 0 | 0.0135 |
| UCCACUCGAG | 0.0131 | 0 | 0.00920 | 0 |
| UCCCCGCGCG | 0.209 | 0.131 | 0.00841 | 0 |
| UCCCCGUAGG | 0.379 | 0.125 | 0.0155 | 0 |
| UCGCCGGUAG | 0.183 | 0.124 | 0 | 0 |
| UCGUCGUUUG | 0.353 | 0.0659 | 0.0169 | 0 |
| UCUACGCGAG | 0.157 | 0.131 | 2.84 | 0.0536 |
| UCUCCGACUG | 0.288 | 0.131 | 0.00773 | 0 |
| UCUCCGCUCG | 0.157 | 0.0953 | 0.00773 | 0 |
| UCUGCGCACG | 0.170 | 0.0717 | 0 | 0 |
| UCUGCGCUCU | 0.0131 | 0 | 0 | 0 |
| UGAGCGAGAG | 0.144 | 0.625 | 0.0500 | 0 |
| UGAGCGCACG | 0.131 | 0.100 | 0 | 0 |
| UGAGCGUAGG | 0.327 | 0.0769 | 0 | 0.00684 |
| UGCCCGCCAG | 0.105 | 0.787 | 0.0938 | 0 |
| UGCUCGCCGG | 0.183 | 0.101 | 0.0155 | 0 |
| UGCUCGUCUG | 0.235 | 0.0710 | 0.00773 | 0.00684 |
| UGGACGACGG | 0.170 | 0.112 | 0.0169 | 0 |
| UGGACGAUGG | 0.301 | 0.0658 | 0 | 0 |
| UGGUCGAGAG | 0.209 | 0.0949 | 0.0184 | 0.0269 |
| UGUGCGAGAG | 0.248 | 0.0478 | 0.00773 | 0.00599 |
| UUAACGGUAG | 0.235 | 0.813 | 0.189 | 0.107 |
| UUACCGAAAG | 0.235 | 0.615 | 0.0852 | 0 |
| UUACCGGAGG | 0.157 | 0.101 | 0.0155 | 0 |
| UUGCCGCAUG | 0.131 | 0.0657 | 0 | 0 |
| UUGCCGGUCG | 0.301 | 0.0898 | 0.00773 | 0 |
| UUGGCGGUAG | 0.824 | 0.171 | 0 | 0.0205 |
| UUUGCGCACG | 0.118 | 0.0715 | 0.0169 | 0 |
| UUUUCGAUGG | 0.157 | 0.0768 | 0 | 0 |

The last 5 entries again:

{"sequence": "UUGCCGCAUG", "pool": "0.131", "IR": 0.0657, "LM": 0, "Sys": 0}
{"sequence": "UUGCCGGUCG", "pool": "0.301", "IR": 0.0898, "LM": 0.00773, "Sys": 0}
{"sequence": "UUGGCGGUAG", "pool": "0.824", "IR": 0.171, "LM": 0, "Sys": 0.0205}
{"sequence": "UUUGCGCACG", "pool": "0.118", "IR": 0.0715, "LM": 0.0169, "Sys": 0}
{"sequence": "UUUUCGAUGG", "pool": "0.157", "IR": 0.0768, "LM": 0, "Sys": 0}

Samples held 36,220 to 57,551 reads, so the smallest values rest on one or two reads. The authors trace changes outside the varied positions to PCR and sequencing errors or to mutation in the plant; presence does not show that a variant is infectious alone. Wild type was 20.7 per thousand in the pool and the most common sequence in every sample (inoculated region 195, 198, 203; leaf margin 629, 591, 734; systemic leaves 942, 870, 868).

The measurements come from Wu et al. 2024 (doi:10.1371/journal.ppat.1012142).